# Assay: Evaluation of solid state stability (XRPD and HPLC after storage)
structure (smiles),measurement,setting,value
"CCN1C[C@]2(COC)CC[C@H](OC)[C@]34C5C[C@]6(O)[C@@H](OC)C[C@@](OC(C)=O)(C5[C@H]6OC(=O)c5ccc(OC)cc5)[C@H](C13)[C@H](OC)[C@H]24 (stereo partly drawn) [crystalline form E, (1α,6α,14α,16β)tetrahydro-8,13,14-triol-20-ethyl-1,6,16-trimethoxy-4-methoxymethyl-8-acetoxy-14-(4′-p-methoxybenzyl)-aconitane]",HPLC purity Area %,"25° C./60% RH, 1 month, open",99.53%
same,HPLC purity Area %,"25° C./60% RH, 1 week, open",99.48%
same,HPLC purity Area %,"40° C./75% RH, 1 month, open",99.47%
same,HPLC purity Area %,"40° C./75% RH, 1 week, open",99.49%
same,HPLC purity Area %,"80° C., 24 hours, sealed",99.34%
same,change of chemical purity (HPLC),all selected test conditions of Table 4,has not changed
